Reference: patent publication US8354451B2, “Treatment of microbial infections with compounds that inhibit 4-hydroxyphenylpyruvate dioxygenase” (The UWM Research Foundation, Inc., priority 2009, dated 2013)

Assays:
[1] = tested on: B. cenocepacia MH1J in RAW264.7 macrophages; assay: Intracellular killing by macrophages, gentamicin protection assay; conditions: NTBC 10 and 100 mM; 1, 3, 24 and 48 h post-infection
[2] = tested on: RAW 264.7 macrophages infected with B. cenocepacia C5424; assay: Macrophage phagolysosomal fusion assay (LYSOTRACKER colocalization); format: cell-based, murine; conditions: bacteria grown with 10 and 100 μM NTBC versus mock, p<0.05

O=C1CCCC(=O)C1C(=O)c1ccc(C(F)(F)F)cc1[N+](=O)[O-] [NTBC, 2-(2-nitro-4-trifluoromethylbenzoyl)-1,3-cyclohexanedione]
intracellular colony forming units, treated vs. untreated macrophages [1]: No differences | ability of bacteria to delay phagolysosomal fusion [2]: significantly reduced ability to delay phagolysosomal fusion
